Measured values from several laboratories, pooled; numbers as filed in NIAID ChemDB.

Common to all: tests on isolated targets; agent: HIV-1; target: Integrase; read-out: IC50

Conditions beyond the fields shown may differ between rows. ICn is the concentration giving n% inhibition. Two numbers with a dash give a range or band. An empty or dashed field is not shown.

compound	strain or isolate	changes	method	result
COc1cccc2c1c(/C(O)=C/C(=O)C(=O)O)cn2Cc1ccccc1F.COc1cccc2c1c(/C(O)=C/C(=O)C(=O)O)cn2Cc1ccccc1F.[Mg+2].[Mg+2]	IIIB	-	3′ processing / AlphaScreen	0.94 µM
COc1ccc(/C=C2\C(=O)N(c3cccc(C)c3)NC2C(F)(F)F)cc1OCc1ccc(F)cc1	-	-	3′ processing	>100 µM
O=C(Nc1ccc2c(O)c(N=Nc3cccc(C(=O)O)c3)c(S(=O)(=O)O)cc2c1)Nc1ccc2c(O)c(N=Nc3cccc(C(=O)O)c3)c(S(=O)(=O)O)cc2c1	-	-	3′ processing	0.5 µM
O=C(Nc1cn2ccn(Cc3cccc(Cl)c3)c(=O)c2c(O)c1=O)c1cccnc1	-	-	ELISA	<0.01 µM
O=C(O)C(=O)/C=C(\O)c1cn(-c2ccccc2F)c(=O)n(-c2ccccc2F)c1=O	-	-	3′ processing	4.1 µM
O=C(Cc1cccnc1)Nc1cn2ccn(Cc3cccc(Cl)c3)c(=O)c2c(O)c1=O	-	-	ELISA	<0.01 µM
O=C(O)/C=C/c1ccc(N=Nc2c(S(=O)(=O)O)cc3cc(S(=O)(=O)O)c(N=Nc4ccc(/C=C/C(=O)O)cc4)c(O)c3c2O)cc1	-	-	3′ processing	1.8 µM
Cc1cn2c(=O)c(O)c(-c3ncc(Cc4ccc(Cl)c(Cl)c4)s3)nc2s1	-	E92Q/N155H	strand transfer	1–10 µM
O=C(O)/C(O)=C/C(=O)n1c(=O)n(Cc2ccccc2)c(=O)n1Cc1ccccc1	-	-	strand transfer	3.3 µM
CCCc1cn(Cc2ccc(Cl)c(Cl)c2)c(=O)c2c(O)c(=O)ccn12	-	-	ELISA	<0.01 µM
CC(=O)/C=C/c1ccc(N=Nc2c(S(=O)(=O)O)cc3cc(NC(=O)Nc4ccc5c(O)c(N=Nc6ccc(/C=C/C(C)=O)cc6)c(S(=O)(=O)O)cc5c4)ccc3c2O)cc1	-	-	3′ processing	2.7 µM
O=C(O)C(=O)/C=C(\O)c1cn(Cc2ccccc2)c(=O)n(Cc2ccccc2)c1=O	-	-	strand transfer	0.2 µM
C[C@@H](c1ccccc1)n1c(=O)c2c(=O)c3[nH]cc[nH]c3c(=O)c2c1=O	-	-	-	1.05 µM
CC(C)(C)C(=O)Nc1cn2ccn(Cc3cccc(Cl)c3)c(=O)c2c(O)c1=O	-	-	ELISA	<0.01 µM
C[C@H](NC(=O)/C=C(\O)C(=O)O)c1ccccc1	-	-	-	>300 µM
CCOC(=O)c1ccc(N=Nc2c(S(=O)(=O)O)cc3cc(NC(=O)Nc4ccc5c(O)c(N=Nc6ccc(C(=O)OCC)cc6)c(S(=O)(=O)O)cc5c4)ccc3c2O)cc1	-	-	3′ processing	2.7 µM
CNC(=O)NC[C@H]1O[C@@H](n2cnc3c(NC(=O)Nc4ccccc4)ncnc32)[C@@H]2OC(=O)C[C@@H]21	NL4-3	-	3′ processing	>10 µM
CCS(=O)(=O)N(C)c1nc(C(=O)NCc2ccc(F)cc2C(=O)NC)c(O)c2ncccc12	-	-	strand transfer	<0.5 µM
COc1ccc(/C=C2\C(=O)N(c3cccc(F)c3)NC2C(F)(F)F)cc1OCc1ccc(F)cc1	-	-	3′ processing	>100 µM
Cc1cn2c(=O)c(O)c(-c3ncc(Cc4ccc(F)c(Cl)c4)s3)nc2s1	-	-	strand transfer	0.001–1 µM
COc1cccc2c1c(/C(O)=C/C(=O)C(=O)O)cn2Cc1cc(F)ccc1F.COc1cccc2c1c(/C(O)=C/C(=O)C(=O)O)cn2Cc1cc(F)ccc1F.[Mg+2].[Mg+2]	IIIB	-	AlphaScreen	0.85 µM
Cn1[nH]c2ccn(Cc3cccc(Cl)c3)c(=O)c2c(=O)c1=O	-	-	ELISA	0.1–1 µM
COc1cccc2c1c(/C(O)=C/C(=O)C(=O)O)cn2Cc1ccc(F)cc1.COc1cccc2c1c(/C(O)=C/C(=O)C(=O)O)cn2Cc1ccc(F)cc1.[Mg+2].[Mg+2]	IIIB	-	3′ processing / AlphaScreen	1 µM
CN1C(=O)[C@@H](c2cc(Cl)c(O)c(Cl)c2)NC(=O)[C@@H]2NC(=O)[C@@H](c3cc(Cl)c(O)c(Cl)c3)NC(=O)[C@H](N)Cc3c[nH]c4c(cccc34)-c3cc2cc(c3O)Oc2ccc(cc2)C[C@H]1C(=O)O	-	-	strand transfer	3–10 µM
O=C(NCc1ccc(F)cc1)c1cn2c(c(O)c1=O)C(=O)N(Cc1ccc(F)cc1)CC2	-	-	ELISA	<0.01 µM
Cc1ccc(C(=O)c2cccc(/C(O)=C/C(=O)C(=O)O)c2)cc1	-	-	strand transfer	14 µM
Cc1csc2nc(C(=O)NCc3ccc(Cl)c(Cl)c3)c(O)c(=O)n12	-	-	strand transfer	0.001–1 µM
C[C@@H](NC(=O)c1nc(-c2cccs2)[nH]c(=O)c1O)c1ccccc1	-	-	-	0.5 µM
[N-]=[N+]=NCc1cccc(C(=O)CC(=O)C(=O)O)c1	-	-	strand transfer	0.76 µM
C/C=C(/CC[C@@H](C)[C@H]1CC[C@H]2[C@@H]3CC=C4C[C@@H](O)CC[C@]4(C)[C@H]3CC[C@]12C)C(C)C	-	-	3′ processing	>100 µM
COc1cc(O)c2c(c1)C(=O)C(C)=C(c1c(OC)cc3cc4cc(C)oc(=O)c4c(O)c3c1O)C2=O	-	-	strand transfer	>100 µM
O=C(O)C(=O)/C=C(\O)c1cccc(NC(=O)c2cc([N+](=O)[O-])cc([N+](=O)[O-])c2O)c1	-	-	3′ processing / gel	8 µM
CC(C)NC(=O)c1cc(F)ccc1CNC(=O)c1nc(N2CCCCS2(=O)=O)c2cccnc2c1O	-	-	strand transfer	<0.5 µM
Cc1cn2c(=O)c(O)c(-c3ncc(Cc4ccc(Cl)cc4)s3)nc2s1	-	G140S/Q148H	strand transfer	>10 µM
CS(=O)(=O)CCC1CN(Cc2ccc(Cl)c(Cl)c2)C(=O)c2c(O)c(=O)ccn21	-	-	ELISA	0.01–0.1 µM
CCOC(=O)C[C@H]1[C@@H](O[Si](C)(C)C(C)(C)C)[C@H](n2cnc3c(NC(=O)Nc4ccccc4)ncnc32)O[C@@H]1CNC(=O)NC	NL4-3	-	strand transfer	>10 µM
O=C(Nc1ccc2c(O)c(N=Nc3cc(F)c(F)c(C(=O)O)c3F)c(S(=O)(=O)O)cc2c1)Nc1ccc2c(O)c(N=Nc3cc(F)c(F)c(C(=O)O)c3F)c(S(=O)(=O)O)cc2c1	-	-	3′ processing	1 µM
COc1ccc(/C=C2\C(=O)N(c3ccccc3)NC2C(F)(F)F)cc1OCc1ccc(F)cc1	-	-	strand transfer	>100 µM
NC(=O)c1cc(F)ccc1CNC(=O)c1nc(N2CCCCS2(=O)=O)c2cccnc2c1O	-	-	strand transfer	<0.5 µM
CC(C)(C)C(=O)c1cn2c(c(O)c1=O)C(=O)N(CCCc1c(F)cccc1Cl)CC2	-	-	ELISA	<0.01 µM
CNC(=O)NC[C@H]1O[C@@H](n2cnc3c(NC(=O)Nc4ccccc4)ncnc32)[C@H](O[Si](C)(C)C(C)(C)C)[C@@H]1CC(=O)N(C)OC	NL4-3	-	3′ processing	>10 µM
O=C(O)C(=O)/C=C(\O)c1cc(=O)n(Cc2ccccc2)c(=O)n1Cc1ccccc1	-	-	strand transfer	2.7 µM

A second listing of 4 rows from above:

compound,strain or isolate,changes,method,result
O=C(Cc1cccnc1)Nc1cn2ccn(Cc3cccc(Cl)c3)c(=O)c2c(O)c1=O,-,-,ELISA,<0.01 µM
O=C(O)/C=C/c1ccc(N=Nc2c(S(=O)(=O)O)cc3cc(S(=O)(=O)O)c(N=Nc4ccc(/C=C/C(=O)O)cc4)c(O)c3c2O)cc1,-,-,3′ processing,1.8 µM
Cc1cn2c(=O)c(O)c(-c3ncc(Cc4ccc(Cl)cc4)s3)nc2s1,-,G140S/Q148H,strand transfer,>10 µM
O=C(O)C(=O)/C=C(\O)c1cn(Cc2ccccc2)c(=O)n(Cc2ccccc2)c1=O,-,-,strand transfer,0.2 µM